Measured values from several laboratories, pooled; numbers as filed in NIAID ChemDB.

All rows: whole-cell or culture tests; organism: Mycobacterium tuberculosis

Percent inhibition refers to the dose given; in toxicity tests it is the harm to the cells. A number after MIC or MFC names an inhibition level or a share of isolates. Rows are shuffled and stem from different studies. MIC bound: limit read from a one-dose screen. a–b is a range or a potency band. An empty or dashed field is not shown. ECn is the concentration giving n% inhibition of infection, replication or growth.

SMILES,strain,read by,tested at,cell line,changes,endpoint,value
C=CCNC(=O)c1cncc(C(=O)O)c1,H37Rv,BACTEC,,,,MIC bound,>12.5 µg/mL
CO[C@H]1/C=C/O[C@@]2(C)Oc3c(C)c(O)c4c(O)c(c(/C=N/N5CCN(C)CC5)c(O)c4c3C2=O)NC(=O)/C(C)=C\C=C\[C@H](C)[C@H](O)[C@@H](C)[C@@H](O)[C@@H](C)[C@H](OC(C)=O)[C@@H]1C,Isolate TN6515,,,,,MIC,0.02 µg/mL
CN(C)C/C=C(\c1ccc(N)cc1)c1ccc(-c2ccc(Br)cc2)cc1,ALI 329,,,,,MIC,≤5 µg/mL
COc1c2c(cc3c1C1Oc4c(ccc(O)c4CC=C(C)C)C1CO3)OC(C)(C)C=C2,INH-r,,,,,MIC,12.5 µg/mL
CO[C@@]1(NC(=O)Cc2cccs2)C(=O)N2C(C(=O)O)=C(COC(N)=O)CS[C@@H]21,H37Rv,,,,,MIC,>16 µg/mL
Cc1ccnc2c1NC(=O)c1cccnc1N2C1CC1,H37Rv,resazurin,,,,MIC bound,>6.25 µg/mL
O=C(N/N=C/c1ccc([N+](=O)[O-])cc1[N+](=O)[O-])c1ccc(F)cc1,H37Rv,,6.25 µg/mL,,,inhibition,39%
S=C(S)NNc1ccccc1,H37Rv,BACTEC,,,,MIC bound,≤12.5 µg/mL
COC(=O)c1ccc2c(C3CCCCC3)cccc2n1,H37Rv,,,,,MIC,>6.25 µg/mL
O=C(N/N=C/c1cccc(Cl)c1)c1ccc(F)cc1,H37Rv,,,,,EC50,<6.25 µg/mL
CN(C)CC=C(c1ccc(Br)cc1)c1ccc(-c2ccc(Br)cc2)cc1,ALI 3082,,,,,MIC,17 µg/mL
O=C(O)c1cc(C2CCCCC2)nc2ccccc12,H37Rv,,,,,MIC,>6.25 µg/mL
O=C(N/N=C/c1ccncc1)c1ccc(F)cc1,H37Rv,,,,,MIC,>6.25 µg/mL
CN(C)CC=C(c1ccccc1)c1ccc(-c2ccc(Br)cc2)cc1,ALI 3082,,,,,MIC,20 µg/mL
CCOc1ccc(NC(=S)NC=C(C(N)=O)C(N)=O)cc1,H37Rv,BACTEC,,,,MIC bound,<6.25 µg/mL
CC(=O)OCC(CSCC(C)SC(C)=O)SC(C)=O,H37Rv,,,,,MIC,6.25 µg/mL
NNC(=O)c1ccncc1,17003,broth dilution,,,Ethambutol-resistant,MIC80,0.2 µM
Cn1c2ccc3cc2c(=S)c2cc(ccc21)OCCOCCOCCOCCOCCO3,H37Rv,resazurin,,,,MIC bound,>6.25 µg/mL
COC(=O)c1c(C2CCCC2)nc2ccccc2c1C1CCCC1,H37Rv,,6.25 µg/mL,,,inhibition,97%
Cc1cnc(CSc2nc(N)c3c4c(sc3n2)CC(C(C)(C)C)CC4)o1,H37Rv,MTT / visual reading,,,,MIC,12.5 µg/mL
C[C@@H](O)[C@H]1C(=O)N2C(C(=O)O)=C(SCCN=CN)C[C@H]12,Isolate 5,,,,,MIC,2 µg/mL
Cc1ccccc1-n1c(-c2ccccc2)cs/c1=N/NC(=O)CSc1nnc(-c2ccccn2)s1,Clinical isolate 190,,,,,MIC,20 µg/mL
CO[C@H]1/C=C/O[C@@]2(C)Oc3c(C)c(O)c4c(O)c(c5c(c4c3C2=O)NC2(CCN(CC(C)C)CC2)N=5)=NC(=O)/C(C)=C\C=C\[C@H](C)[C@H](O)[C@@H](C)[C@@H](O)[C@@H](C)[C@H](OC(C)=O)[C@@H]1C,Strain 139-151 (S531L/W/F),,,,,MIC,48 µg/mL
O=C(O)CSC(=S)N1CCN(C(=S)SCC(=O)O)CC1,H37Rv,BACTEC,,,,MIC bound,>12.5 µg/mL
CN(C)C/C=C(/c1ccccc1)c1ccc(-c2ccc(Br)cc2)cc1,ALI 282,,,,,MIC,≤5 µg/mL
C/C(=N\NC(=S)N(C)C)c1ccccn1.[Cu][Br],V4207,,,,,MIC90,6.25 µM
CCOc1ccc2ccccc2c1C(=O)N[C@@H]1C(=O)N2[C@@H]1SC(C)(C)[C@@H]2C(=O)O,H37Rv,,,,,MIC,>16 µg/mL
O=C(OCC(S)CS)c1ccccc1Cl,H37Rv,,,,,MIC,25 µg/mL
COC1CCC(OC2CC(C3(C)CCC4(CC(O)C(C)C(C(C)/C=C(\C)C(=O)C(C)CC(C)C(=O)O)O4)O3)OC3(OC(C4OC(O)(CO)C(C)CC4C)CC3C)C2C)OC1C,H37Rv,BACTEC,128 µg/mL,,,inhibition,98%
O=C(NN1C(=O)C(Cl)C1c1ccco1)c1ccccc1-c1nc2ccccc2[nH]1,H37Rv,,0.031 µg/mL,,,inhibition,68%
COc1ccc(-n2c(C)c(COC(=O)NC(C)C)c(COC(=O)NC(C)C)c2C)cc1,H37Rv,BACTEC,,,,MIC bound,>6.25 µg/mL
O=C(CSc1nnc(-c2ccccn2)s1)N/N=c1/scc(-c2cccc(Cl)c2)n1-c1ccccc1,H37Rv,,,,,MIC,>80 µg/mL
O=C(N/N=C/c1ccc(Cl)cc1)c1ccc(F)cc1,H37Rv,,,,,EC50,>6.25 µg/mL
Cc1ccc2nc3cc(C)c(=O)cc-3sc2c1,H37Rv,BACTEC,12.5 µg/mL,,,inhibition,98%
O=C(CSc1nnc(-c2ccccn2)s1)N/N=c1/scc(-c2ccccc2)n1-c1ccc(Cl)cc1,H37Rv,,,,,MIC,80 µg/mL
O=C(N/N=C/c1ccc([N+](=O)[O-])s1)c1ccccc1,H37Rv,,,,,MIC,<6.25 µg/mL
O=c1nc2[nH]c3ccccc3c2n[nH]1,H37Rv,resazurin,,,,MIC bound,>6.25 µg/mL
COc1ccc(C2C(Cl)C(=O)N2NC(=O)c2ccccc2-c2nc3ccccc3[nH]2)cc1,H37Rv,,,,,EC50,<0.031 µg/mL
CCCCC(=O)N/N=C/c1ccc(N(C)C)cc1Cl,H37Rv,BACTEC,,,,MIC bound,>12.5 µg/mL
CO[C@H]1/C=C/O[C@@]2(C)Oc3c(C)c(O)c4c(O)c(c(/C=N/N5CCN(C)CC5)c(O)c4c3C2=O)NC(=O)/C(C)=C\C=C\[C@H](C)[C@H](O)[C@@H](C)[C@@H](O)[C@@H](C)[C@H](OC(C)=O)[C@@H]1C,Clinical isolate 16116,broth dilution,,,,MIC,≤0.1 µM
CCC1CN(c2c(F)cc3c(=O)c(C(=O)O)cn(C4CC4)c3c2OC)CCN1,Isolate TN1626,,,,,MIC,0.1 µg/mL
O=C(O)c1cc(C2CCCCC2)c2ccccc2n1,H37Rv,,,,,MIC,>6.25 µg/mL
CCOC(=O)CSc1nc(N)c2c3c(sc2n1)CC(C(C)(C)C)CC3,H37Rv,MTT / visual reading,,,,MIC,0.39 µg/mL
O=C(O)c1cc(C2C3CC4CC(C3)CC2C4)c2ccccc2n1,H37Rv,,6.25 µg/mL,,,inhibition,15%
O=C(N/N=C/c1ccc(Cl)cc1Cl)c1ccccc1-c1nc2ccccc2[nH]1,H37Rv,,,,,EC50,<0.031 µg/mL
CC1(C)S[C@@H]2[C@H](NC(=O)[C@H](N)c3ccc(O)cc3)C(=O)N2[C@H]1C(=O)O,Isolate 3,,,,,MIC,>16 µg/mL
CSC(=S)n1nc(-c2ccccc2)c(N=Nc2ccc(Br)cc2)c1C,H37Rv,BACTEC,,,,MIC,16 µg/mL
COC(=O)Cc1cc(C2CCCC2)nc2c(C3CCCC3)cccc12,H37Rv,,6.25 µg/mL,,,inhibition,3%
Cc1cccc(-c2cs/c(=N/NC(=O)CSc3nnc(-c4ccccn4)s3)n2-c2ccccc2)c1,H37Rv,,,,,MIC,40 µg/mL
FC(F)(F)c1nn2c(-c3ccccc3)c(-c3ccccc3)c(-c3ccccc3)c(-c3ccccc3)c2c1C(F)(F)F,H37Rv,resazurin,,,,MIC bound,>6.25 µg/mL
O=C(N/N=C/c1ccc([N+](=O)[O-])s1)c1ccc(Cl)cc1,H37Rv,,,,,MIC,<6.25 µg/mL
NNC(=O)c1ccncc1,Clinical isolate 18460,broth dilution,,,Rifampicin- and isoniazid-resistant,MIC,≤10 µM
OCC(S)CCCCCCCCCS,H37Rv,,,,,MIC,>50 µg/mL
O=C(NN1C(=O)C(Cl)C1c1ccccc1)c1ccccc1-c1nc2ccccc2[nH]1,H37Rv,,,,,EC50,<0.031 µg/mL
Cc1ccc(-n2c(-c3ccccc3)cs/c2=N/NC(=O)CSc2nnc(-c3ccccn3)s2)cc1,Clinical isolate 190,,,,,MIC,40 µg/mL
C=C(NC(=O)c1csc(-c2nc3c(cc2O)-c2nc(cs2)C(=O)N[C@@H]([C@@H](C)O)C(=O)N/C(=C(\C)OC)c2nc(cs2)C(=O)N[C@@H]2c4nc(cs4)C(=O)N[C@@H](COC(=O)c4c5c6c(cccc6n4O)COC(=O)[C@@H](O[C@H]4C[C@](C)(O)[C@H](N(C)C)[C@H](C)O4)[C@H]2OC5)c2nc-3cs2)n1)C(N)=O,Clinical isolate 10525,broth dilution,,,Rifampicin- and isoniazid-resistant,MIC,≤2.5 µM
Cc1cc(=O)c2c(=O)n(-c3ccccc3)[nH]c2[nH]1,H37Rv,BACTEC,12.5 µg/mL,,,inhibition,-2%
COC(=O)SCC1CS1,H37Rv,,,,,MIC,6.25–12.5 µg/mL
S=C(S)N1CCCCC1,H37Rv,,,VERO,,MIC,0.8 µg/mL
CO/C(C)=C1/NC(=O)[C@H]([C@@H](C)O)NC(=O)c2csc(n2)-c2cc(O)c(-c3nc(C(=O)NCCCN4CCOCC4)cs3)nc2-c2csc(n2)[C@@H]2COC(=O)c3c4c5c(cccc5n3O)COC(=O)[C@@H](O[C@H]3C[C@](C)(O)[C@H](N(C)C)[C@H](C)O3)[C@@H](OC4)[C@H](NC(=O)c3csc1n3)c1nc(cs1)C(=O)N2,Clinical isolate 9139,broth dilution,,,Isoniazid-resistant,MIC,≤2.5 µM
NNC(=O)c1ccccc1,Mtb 365,,,,,MIC,2 µg/mL
Nc1nc(-c2ccccc2)c(N=Nc2cc(Cl)ccc2Cl)s1,H37Rv,BACTEC,,,,MIC bound,>12.5 µg/mL
O=C(SCC1CS1)c1ccc([N+](=O)[O-])cc1,H37Rv,,,,,MIC,6.25 µg/mL
CN(C)C/C=C(/c1ccc(Br)cc1)c1ccc(-c2ccc(Br)cc2)cc1,ALI 282,,,,,MIC,≤4 µg/mL
CC(=O)Nc1ccc(C(=O)SCC2CS2)cc1,H37Rv,,,,,MIC,3.125–6.25 µg/mL
COc1cc(/C=N/NC(=O)c2ccccc2-c2nc3ccccc3[nH]2)ccc1O,H37Rv,,,,,EC50,<0.031 µg/mL
COc1nc2ccc(Br)cc2cc1[C@@H](c1ccccc1)[C@@](O)(CCN(C)C)c1cccc2ccccc12,12119,broth dilution,,,Ofloxacin-resistant,MIC80,<2 µM
Cc1cc(CSc2nc(N)c3c4c(sc3n2)CC(C(C)(C)C)CC4)no1,H37Rv,MTT / visual reading,,,,MIC,3.1 µg/mL
O=C(NN1C(=O)C(Cl)C1c1ccccc1Cl)c1ccccc1-c1nc2ccccc2[nH]1,H37Rv,,,,,EC50,>0.031 µg/mL
CO/C(C)=C1/NC(=O)[C@H]([C@@H](C)O)NC(=O)c2csc(n2)-c2cc(O)c(-c3nc(C(=O)NNC4CCN(C)CC4)cs3)nc2-c2csc(n2)[C@@H]2COC(=O)c3c4c5c(cccc5n3O)COC(=O)[C@@H](O[C@H]3C[C@](C)(O)[C@H](N(C)C)[C@H](C)O3)[C@@H](OC4)[C@H](NC(=O)c3csc1n3)c1nc(cs1)C(=O)N2,Clinical Isolate 913,broth dilution,,,,MIC,10–100 µM
CO[C@H]1/C=C/O[C@@]2(C)Oc3c(C)c(O)c4c(O)c(c(/C=N/N5CCN(C)CC5)c(O)c4c3C2=O)NC(=O)/C(C)=C\C=C\[C@H](C)[C@H](O)[C@@H](C)[C@@H](O)[C@@H](C)[C@H](OC(C)=O)[C@@H]1C,35822,broth dilution,,,Isoniazid-resistant,MIC80,0.04 µM
COc1ccc2c(c1)CCC1C2=CCS1(=O)=O,H37Rv,resazurin,6.25 µg/mL,,,inhibition,-4%
CC(S)C1CS1,H37Rv,,,,,MIC,12.5–25 µg/mL
N#Cc1nc(CC(=O)c2ccccn2)c(CC(=O)c2ccccn2)nc1C#N,H37Rv,BACTEC,,,,MIC bound,>12.5 µg/mL
CC(C)(C)OC(=O)n1ccc(CSc2nc(N)c3c4c(sc3n2)CC(C(C)(C)C)CC4)n1,H37Rv,MTT / visual reading,,,,MIC,>200 µg/mL
COc1cc2c3c(c1OC)Oc1ccc(cc1)CC1c4c(cc(OC)c(OC)c4Oc4ccc(cc4)CC3N(C)CC2)CCN1C,H37Rv,BACTEC,12.5 µg/mL,,,inhibition,8%
COC(=O)Cc1ccnc2ccccc12,H37Rv,,,,,MIC,>6.25 µg/mL

9 of the rows above, restated:

SMILES,strain,read by,tested at,cell line,changes,endpoint,value
Cc1ccnc2c1NC(=O)c1cccnc1N2C1CC1,H37Rv,resazurin,,,,MIC bound,>6.25 µg/mL
COC1CCC(OC2CC(C3(C)CCC4(CC(O)C(C)C(C(C)/C=C(\C)C(=O)C(C)CC(C)C(=O)O)O4)O3)OC3(OC(C4OC(O)(CO)C(C)CC4C)CC3C)C2C)OC1C,H37Rv,BACTEC,128 µg/mL,,,inhibition,98%
C=CCNC(=O)c1cncc(C(=O)O)c1,H37Rv,BACTEC,,,,MIC bound,>12.5 µg/mL
O=C(O)c1cc(C2CCCCC2)nc2ccccc12,H37Rv,,,,,MIC,>6.25 µg/mL
O=C(N/N=C/c1ccc(Cl)cc1Cl)c1ccccc1-c1nc2ccccc2[nH]1,H37Rv,,,,,EC50,<0.031 µg/mL
CO[C@H]1/C=C/O[C@@]2(C)Oc3c(C)c(O)c4c(O)c(c(/C=N/N5CCN(C)CC5)c(O)c4c3C2=O)NC(=O)/C(C)=C\C=C\[C@H](C)[C@H](O)[C@@H](C)[C@@H](O)[C@@H](C)[C@H](OC(C)=O)[C@@H]1C,35822,broth dilution,,,Isoniazid-resistant,MIC80,0.04 µM
CC(C)(C)OC(=O)n1ccc(CSc2nc(N)c3c4c(sc3n2)CC(C(C)(C)C)CC4)n1,H37Rv,MTT / visual reading,,,,MIC,>200 µg/mL
C[C@@H](O)[C@H]1C(=O)N2C(C(=O)O)=C(SCCN=CN)C[C@H]12,Isolate 5,,,,,MIC,2 µg/mL
NNC(=O)c1ccncc1,17003,broth dilution,,,Ethambutol-resistant,MIC80,0.2 µM